According to patent publication US20110282030A1, “Chimeric natriuretic peptides without hypotensive inducing capability” (published 2011):

Key:
human NPR-B (human) = human NPR-B (human) (UniProt P20594); assay: cell-based or functional assay
human NPR-A (human) = human NPR-A (human) (UniProt P16066)

Which results are given for “CD-NP polypeptide (peptide; modification not given)”?
EC50, cellular cGMP elevation in 293 cells expressing hNPR-B (human NPR-B (human)): 202 nM; fold more peptide than ANP required to compete for ^125I-ANP (human NPR-A (human)): 1000 fold
